A mixed list of measured activities; the numbers were collected in NIAID ChemDB.

Shared fields: whole-cell or culture tests; species: HIV-1

a–b is a range or a potency band. An empty or dashed field is not shown. Conditions beyond the fields shown may differ between rows. ECn is the concentration giving n% inhibition of infection, replication or growth.

SMILES | method | strain | cell line | measure | mutations | value
Cc1cc(CF)cc(C(=O)c2c(C(C)C)c(=O)[nH]c(=O)n2Cc2cc(C)nc(C)c2)c1 | cytopathic effect / MTT |  | MT-4 | EC50 |  | 0.0025 µg/mL
COc1cc2nc(-c3c(F)cccc3F)n(Cc3c(F)cccc3F)c2cc1Cc1c(F)cccc1F | RT activity | IIIB | MT-4 | EC50 |  | 31.22 µM
CC1(C)CC(NC(=O)C(=O)Nc2ccc(Cl)cc2)CC(C)(C)N1 | p24 | MN | MT-2 | EC50 |  | 15.88 µM
CN1CCn2c(nc(C(=O)NCc3ccc(F)c(Cl)c3)c(O)c2=O)C1(C)C | p24 |  | MT-4 | EC50 |  | <1 µM
Cc1ccc(C(C)S(=O)(=O)c2c(C)ccc[n+]2[O-])c(C)c1 | syncytia | IIIB | CEM | EC50 | RT-K103N | 50 µg/mL
CC(C)CN(C[C@@H](O)[C@H](Cc1ccccc1)NC(=O)OC(C)(C)C)S(=O)(=O)c1ccc2nonc2c1 | p24 | IIIB | CEM | EC50 |  | <1.001 µM
CCN(C(=O)C(=O)N(C)C)C1CN(C)CCn2c1nc(C(=O)NCc1ccc(F)c(C)c1)c(O)c2=O | p24 |  | MT-4 | EC95 |  | <1 µM
COc1ccc(-c2c(C)nc3c(N4CC[C@@H](NS(=O)(=O)C5CC5)C4)cc(C)nn23)cc1OC | p24 |  | H9 | EC50 |  | 0.1 µM
CCN(C(=O)C(=O)N(C)C)C1CN(C)CCn2c1nc(C(=O)NCc1ccc(F)cc1)c(O)c2=O | p24 |  | MT-4 | EC50 |  | <1 µM
C[C@H]1CN(C2CC2)C(=O)C2=C(O)C3C(=O)N4Cc5ccc(F)cc5OCCCCCNC(=O)C(=N4)C3N21 |  | LAII(IIIB) | MT-4 | EC50 |  | 3.29 µM
CCc1c(Oc2cc(C)cc(C)c2)n(Cc2ccncc2)c(=O)[nH]c1=O | cytopathic effect / MTT |  | MT-4 | EC50 |  | 0.018 µg/mL
Cc1cn(CC(=O)Nc2ccc(Br)cn2)c(=O)[nH]c1=O | luciferase | ADA5 | TZM-bl | EC50 |  | 39.43 µM
CCN1c2ncc(CCOc3ccc4cc(CC(=O)O)ccc4c3C)cc2C(=O)N(C)c2cccnc21 | p24 |  | C8166 | EC50 | RT-K103N Y181C | <0.1 µM
O=C(NCc1ccc(F)cc1)c1nc2n(c(=O)c1O)CCNC21CCOCC1 | p24 |  | MT-4 | EC95 |  | <1 µM
Cc1cc(S(N)(=O)=O)ccc1NC(=O)COc1ccc(Cl)cc1C(=O)c1cc(F)cc(F)c1 | β-galactosidase | HXB2 | HeLa + HELA CD4+ | EC50 | RT-K103N V108I | <0.01 µM
CC(C)n1c(C(=O)N(C)C)c2c(c(O)c1=O)C(=O)N(Cc1ccc(F)c(Cl)c1)CC2 | p24 |  | MT-4 | EC95 |  | ≤10 µM
COc1ccc(-c2c(C)nc3c(N4CC[C@@H](NS(=O)(=O)c5cccs5)C4)cc(C)nn23)cc1OC | p24 |  | H9 | EC50 |  | 0.1 µM
CN1CCn2c(nc(C(=O)NCc3ccc(F)c(Cl)c3)c(O)c2=O)C(N(C)C(=O)C(=O)N(C)C)C1 | p24 |  | MT-4 | EC95 |  | <1 µM
CC(C)CCC[C@@H](C)[C@H]1CC[C@H]2[C@@H]3CC[C@H]4C[C@@H](CCC=C(c5cc(Cl)c(O)c(C(=O)O)c5)c5cc(Cl)c(O)c(C(=O)O)c5)CC[C@]4(C)[C@H]3CC[C@]12C | cytopathic effect / MTT | IIIB | MT-4 | EC50 |  | 3 µM
Cc1cc(N2CCS(=O)CC2)ccc1NC(=O)COc1ccc(Cl)cc1C(=O)c1cccs1 | β-galactosidase | WTRVA | HeLa + HELA CD4+ | EC50 |  | 0.011–0.1 µM
CCOC(=O)CCc1nc(-c2ccc(S(=O)(=O)N(CC(C)C)C[C@@H](O)[C@H](Cc3ccccc3)NC(=O)O[C@H]3CO[C@H]4OCC[C@H]43)cc2)co1 | cytopathic effect / MTT |  | MT-4 | EC50 | PR-L010F M046I M071V I084V | 0.6 µM
Fc1ccccc1Cn1c(-c2ccccc2F)nc2ccccc21 | RT activity | IIIB | MT-4 | EC50 |  | 2.62 µM
CC1(C)c2nc(C(=O)NCc3ccc(F)cc3)c(O)c(=O)n2CCN1Cc1cnco1 | p24 |  | MT-4 | EC95 |  | <1 µM
COc1ccc(-c2c(C)nn3c(N4CC[C@@H](NC(C)=O)C4)cc(C)nc23)cc1OC | p24 | RF | H9 | EC50 |  | >100 µM
CN(C)C(=O)c1[nH]c(=O)c(O)c2c1CCN(Cc1ccc(F)cc1)C2=O | p24 |  | MT-4 | EC50 |  | <10 µM
Cc1ccc(C)c(CS(=O)(=O)c2cccc[n+]2[O-])c1 | syncytia | RF | CEM | EC50 |  | 7.2 µg/mL
Cc1ccc2c(c1)nc(-c1c(F)cccc1F)n2Cc1c(F)cccc1F | RT activity | IIIB | MT-4 | EC50 |  | 4.89 µM
COc1ccc(-c2csc3c(N4CC[C@@H](NC(C)=O)C4)nc(Cl)nc23)cc1OC | p24 |  | H9 | EC50 |  | >100 µM
CC(C)(C)OC(=O)N[C@@H](Cc1ccccc1)[C@H](O)CN(CC1CCCC1)S(=O)(=O)c1ccc(Cl)c(Cl)c1 | p24 | IIIB | CEM | EC50 |  | <1.001 µM
CC(C)=CCOc1cc(NC(=S)c2ccoc2C)ccc1Cl | syncytia | IIIB | CEM | EC50 | RT-Y188H | 0.012 µg/mL
CC(=O)Nc1ccc(S(=O)(=O)N(CC(C)C)C[C@@H](O)[C@H](Cc2ccccc2)NC(=O)O[C@H]2CCOC2)cc1 | p24 | IIIB | CEM | EC50 |  | <0.101 µM
Cc1cc(C)cc(C(=O)c2c(C(C)C)c(=O)[nH]c(=O)n2Cc2ccc([N+](=O)[O-])cc2)c1 | cytopathic effect / MTT |  | MT-4 | EC50 |  | 0.005 µg/mL
Cc1cc(C#N)cc(C(=O)c2cc(Cl)ccc2OCC(=O)Nc2ccc(S(N)(=O)=O)nc2C)c1 | cytopathic effect / propidium iodide | Nevirapine-resistant (RT Y181C) | MT-4 | EC50 | RT-Y181C | <0.01 µM
CC(C)Cn1c(C(=O)N(C)C)c2c(c(O)c1=O)C(=O)N(Cc1ccc(F)c(Cl)c1)CC2 | p24 |  | MT-4 | EC50 |  | <10 µM
COc1ccc(-c2c(C)nc3c(N4CCC(F)(F)C4)cc(C)nn23)cc1OC | p24 |  | H9 | EC50 |  | 1 µM
Cc1cc2[nH]cnc2cc1NC(=O)COc1ccc(Cl)cc1C(=O)c1cc(F)cc(C(F)(F)F)c1 | β-galactosidase | HXB2 (RT-K103N Y181C) Recombinant | HeLa + HELA CD4+ | EC50 | RT-K103N Y181C | 0.011–0.1 µM
Cc1cn(CC(=O)Nc2ccc([N+](=O)[O-])cn2)c(=O)[nH]c1=O | luciferase | UG070 | TZM-bl | EC50 |  | 32.68 µM
CC(C)CN(C[C@@H](O)[C@H](Cc1ccccc1)NC(=O)O[C@H]1CCOC1)S(=O)(=O)c1cccc(Cl)c1 | p24 | IIIB | CEM | EC50 |  | <0.101 µM
Cc1ccc(C)c(CSc2c(Cl)ccc[n+]2[O-])c1 | syncytia | HE | CEM | EC50 |  | 0.2 µg/mL
CC[C@H](C)[C@H](NC(=O)c1cnc2ccccc2n1)C(=O)N[C@@H](Cc1ccccc1)[C@H](O)CN(CC(C)C)S(=O)(=O)c1ccc(F)c(NC(C)=O)c1 | p24 | IIIB | CEM | EC50 |  | <1.001 µM
CNc1nc(-c2ccc(S(=O)(=O)N(CC(C)C)C[C@@H](O)[C@H](Cc3ccccc3)NC(=O)O[C@H]3CO[C@H]4OCC[C@H]43)cc2)cs1 | cytopathic effect / MTT |  | MT-4 | EC50 | PR-L010F M046I M071V I084V | 0.126 µM
CCN1c2ncc(CCOc3ccc(CCC(=O)O)c4ccccc34)cc2C(=O)N(C)c2ccc(F)nc21 | p24 |  | C8166 | EC50 | RT-K103N Y181C | <0.1 µM
CC(=O)Nc1ccc(S(=O)(=O)N(CC(C)C)C[C@@H](O)[C@H](Cc2ccccc2)NC(=O)[C@@H](NC(=O)OCc2ccncc2)C(C)C)cc1 | p24 | IIIB | CEM | EC50 |  | <0.101 µM
CC(C)CN(C[C@@H](O)[C@H](Cc1ccccc1)NC(=O)O[C@H]1CO[C@H]2OCC[C@H]21)S(=O)(=O)c1ccc(-c2coc(N)n2)cc1 | cytopathic effect / MTT | LAI | MT-4 | EC50 |  | 0.004 µM
CCN1C[C@H](C)N2C(=C(O)C3C(=O)N4Cc5ccc(F)cc5OCCCCCS(=O)(=O)N(C)C(=N4)C32)C1=O |  | LAII(IIIB) | MT-4 | EC50 |  | 1.67 µM
C=CCNc1nc(-c2ccc(S(=O)(=O)N(CC(C)C)C[C@@H](O)[C@H](Cc3ccccc3)NC(=O)COc3c(C)cccc3C)cc2)cs1 | cytopathic effect / MTT | LAI | MT-4 | EC50 |  | 7.943 µM
CC(C)CN(C[C@@H](O)[C@H](Cc1ccccc1)NC(=O)OCC1CCOC1)S(=O)(=O)c1ccc(F)cc1 | p24 | IIIB | CEM | EC50 |  | <0.101 µM
O=C(O)c1[nH]c(=O)c(O)c2c1CCN(Cc1ccc(F)cc1)C2=O | p24 |  | MT-4 | EC95 |  | ≤10 µM
CCCn1nccc1-c1ccc(S(=O)(=O)N(CC(C)C)C[C@@H](O)[C@H](Cc2ccccc2)NC(=O)COc2c(C)cccc2C)cc1 | cytopathic effect / MTT | LAI | MT-4 | EC50 |  | 10 µM
CCN(CC)C(=O)c1c2c(c(O)c(=O)n1C)C(=O)N(Cc1ccc(F)cc1)CC2 | p24 |  | MT-4 | EC95 |  | ≤10 µM
Cc1cc(C#N)cc(C(=O)c2cc(Cl)ccc2OCC(=O)Nc2ccc(OCCCN3CC=CC3)cc2C)c1 | β-galactosidase | HXB2 | HeLa + HELA CD4+ | EC50 | RT-K103N V108I | <0.01 µM
CCN1c2ncc(CCOc3ccc(CCC(=O)O)c4c3CCCC4)cc2C(=O)N(C)c2ccc(Cl)nc21 | p24 | WT | C8166 | EC50 |  | <0.1 µM
CCN1CCCCCOc2cc(F)c(Cl)cc2CN2N=C(C1=O)C1C(C2=O)C(O)=C2C(=O)N(CC)C[C@H](C)N21 |  | LAII(IIIB) | MT-4 | EC50 |  | 23.08 µM
COc1ccc(-c2c(C)nc3c(N4CCC(NC(C)=O)CC4)cc(C)nn23)cc1OC | p24 |  | H9 | EC50 |  | 1 µM
CCN1C[C@H](C)N2C(=C(O)C3C(=O)N4Cc5ccc(F)cc5OCCCCS(=O)(=O)N(C)C(=N4)C32)C1=O |  | LAII(IIIB) | MT-4 | EC50 |  | 1.14 µM
Cc1cc(CF)cc(C(=O)c2c(C(C)C)c(=O)[nH]c(=O)n2Cc2ccncc2)c1 | cytopathic effect / MTT |  | MT-4 | EC50 |  | 0.002 µg/mL
Cc1cc2cn[nH]c2cc1NC(=O)COc1ccc(Cl)cc1C(=O)c1cccc(C#N)c1 | β-galactosidase | HXB2 | HeLa + HELA CD4+ | EC50 | RT-K103N V108I | <0.01 µM
O=C(Cn1cnc2c(Br)cccc21)Nc1ccccn1 | luciferase | ADA5 | TZM-bl | EC50 |  | 76 µM
CCN1c2ncc(CCOc3ccc4cc(C(=O)NN)ccc4c3)cc2C(=O)N(C)c2cccnc21 | p24 |  | C8166 | EC50 | RT-K103N Y181C | 0.1–1 µM
CCN1C[C@H](C)N2C(=C(O)C3C(=O)N4Cc5ccc(F)cc5OCCCCCNC(=O)C(=N4)C32)C1=O |  | LAII(IIIB) | MT-4 | EC50 |  | 2.61 µM
Cc1cc(S(N)(=O)=O)ccc1NC(=O)COc1ccc(Cl)cc1C(=O)c1cc(F)cc(C(F)(F)F)c1 | β-galactosidase | WTRVA | HeLa + HELA CD4+ | EC50 |  | <0.01 µM
O=[N+]([O-])c1ccc[n+]([O-])c1SCc1ccccc1 | syncytia | IIIB | CEM | EC50 | RT-L100I | 1.9 µg/mL
CCc1c(C(=O)c2cc(F)cc(F)c2)n(Cc2ccncc2)c(=O)[nH]c1=O | cytopathic effect / MTT |  | MT-4 | EC50 |  | 0.0601 µg/mL
Cc1cccc(CS(=O)(=O)c2cccc[n+]2[O-])c1 | syncytia | HE | CEM | EC50 |  | 10 µg/mL
O=C(COc1ccc(Cl)cc1C(=O)c1ccco1)Nc1ccc2cn[nH]c2c1 | β-galactosidase | HXB2 (RT-K103N Y181C) Recombinant | HeLa + HELA CD4+ | EC50 | RT-K103N Y181C | 0.101–1 µM
Cc1cc(Br)cc(C)c1OCC(=O)N[C@@H](Cc1ccccc1)[C@H](O)CN(CC(C)C)S(=O)(=O)c1ccc(-c2csc(Nc3ccc(Cl)c(Cl)c3)n2)cc1 | cytopathic effect / MTT | LAI | MT-4 | EC50 |  | 100 µM
O=C(Cn1ccc(=O)[nH]c1=O)Nc1ccc(Br)cn1 | luciferase | IIIB | TZM-bl | EC50 |  | 65 µM
Cc1cc(C)cc(C(=O)c2cc(Cl)ccc2OCC(=O)Nc2ccc(S(N)(=O)=O)cc2C)c1 | cytopathic effect / propidium iodide | IIIB | MT-4 | EC50 |  | <0.01 µM
Cc1ccc(C)c(C(C)S(=O)(=O)c2c(C)ccc[n+]2[O-])c1 | syncytia | IIIB | CEM | EC50 | RT-L100I | 4.6 µg/mL
CCN(CC)C(=O)c1c2c(c(O)c(=O)n1C)C(=O)N(Cc1ccc(F)c(Cl)c1)CC2 | p24 |  | MT-4 | EC95 |  | ≤10 µM
CC(C)=CCOc1cc(NC(=S)c2ccsc2C)ccc1Cl | p24 | NL4-3 | CEM + CEM-SS | EC50 | RT-L74V | 0.006 µM
CN(C)C(=O)c1c2c(c(O)c(=O)n1C)C(=O)N(Cc1ccc(F)cc1)CC2 | p24 |  | MT-4 | EC95 |  | ≤10 µM
CC(=O)Nc1ncc(-c2ccc(S(=O)(=O)N(CC(C)C)C[C@@H](O)[C@H](Cc3ccccc3)NC(=O)O[C@H]3CO[C@H]4OCC[C@H]43)cc2)[nH]1 | cytopathic effect / MTT |  | MT-4 | EC50 | PR-L010F M046I M071V I084V | 0.144 µM